# Test results as given in PubChem BioAssay AID1508601 (ICCB-Longwood Screening Facility, Harvard Medical School, 2020).
# Protein sequences, listed by entry. Tags and fused reporters are not part of them.
# UniProt P04637, whole entry: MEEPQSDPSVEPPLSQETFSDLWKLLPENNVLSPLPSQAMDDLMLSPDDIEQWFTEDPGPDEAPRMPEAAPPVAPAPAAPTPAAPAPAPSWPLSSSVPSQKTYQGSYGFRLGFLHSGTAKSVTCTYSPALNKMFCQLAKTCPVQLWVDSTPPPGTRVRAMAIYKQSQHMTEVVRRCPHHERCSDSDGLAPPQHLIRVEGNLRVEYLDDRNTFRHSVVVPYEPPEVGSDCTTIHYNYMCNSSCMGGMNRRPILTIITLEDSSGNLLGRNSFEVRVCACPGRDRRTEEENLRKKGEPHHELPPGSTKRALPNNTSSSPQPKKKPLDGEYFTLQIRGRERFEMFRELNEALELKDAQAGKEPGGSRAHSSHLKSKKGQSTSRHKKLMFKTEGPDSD
# This is a selection; strong and weak results do not stand in their true shares. Activity calls are given as the source filed them. Cut-off read from the data, not from the text of the source: active = p53-positive nuclei above about 36% (passing the limit was not always enough); inactive = the rest.
# Target: Cellular tumor antigen p53 (Homo sapiens) (UniProt P04637)
# Test: p53 stabilisation in HPV-positive human cells, imaging, p53-positive nuclei imaging, 24 h, 48 h (AID 1508601)
# Conditions: 24/48 h, active compounds read high, concentration not given here
row,Structure (SMILES),"p53-positive nuclei, normalised"
1,OCCSCCO,inactive: 0.11%
